# Laboratory results from US20140120063A1, “NUTRITIONAL AND METABOLIC APPROACHES TO PREVENT EMERGENCE OF ENTERIC PATHOGENS” (The Board of Trustees of the Leland Stanford Junior …, priority 2012, published 2014).
# Test: Free sialic acid in ceca of conventional mice after antibiotic treatment (DMB-HPLC)
# Format: in vivo
compound,measurement,setting,value
[H]/N=C(/N)N[C@H]1[C@H](O)[C@@H](O)[C@H](O[C@@H]2O[C@@H](C)[C@](O)(C=O)[C@H]2O[C@@H]2O[C@@H](CO)[C@H](O)[C@@H](O)[C@@H]2NC)[C@@H](N/C(N)=N\[H])[C@@H]1O [streptomycin],free sialic acid level in ceca,"1 day post-streptomycin (20 mg gavage), untreated mice 17 pmoles/mg",725 pmol/mg
same,pool of free sialic acids in ceca,day 3 post-treatment,decreased
